In patent US20070010489A1 (priority 2002, published 2007):

Assays:
[1] = system: recombinant HIV-1 8K/46I/90M; assay: Cross-Resistance Profile Assay, 8K/46I/90M; assay type: cell-based; conditions: mutant 8K/46I/90M
[2] = system: recombinant HIV-1 46I/47V/50V; assay type: cell-based; conditions: mutant 46I/47V/50V
[3] = system: recombinant HIV-1 10F/46I/71V/82T/90M; assay: Cross-Resistance Profile Assay, 10F/46I/71V/82T/90M; assay type: cell-based; conditions: mutant 10F/46I/71V/82T/90M
[4] = system: recombinant HIV-1 48V/54V/71V/82S; assay type: cell-based; conditions: mutant 48V/54V/71V/82S
[5] = system: recombinant HIV-1 10I/48V/54V/82A; conditions: mutant 10I/48V/54V/82A
[6] = system: recombinant HIV-1 30N/50S/82I/88D; conditions: mutant 30N/50S/82I/88D
[7] = system: recombinant HIV-1 46I/84A; assay: Cross-Resistance Profile Assay, 46I/84A; conditions: mutant 46I/84A
[8] = system: recombinant HIV-1 54V/71V/82S; assay: Cross-Resistance Profile Assay, 54V/71V/82S; conditions: mutant 54V/71V/82S
[9] = system: recombinant HIV-1 10R/46I/82T/84V; assay: Cross-Resistance Profile Assay, 10R/46I/82T/84V; conditions: mutant 10R/46I/82T/84V

CCOC(=O)C(C)NP(=O)(COc1ccc(CC(NC(=O)OC2COC3OCCC23)C(O)CN(CC(C)C)S(=O)(=O)c2ccc(OC)cc2)cc1)Oc1ccccc1 (stereo not drawn) [GS-16571]
Fold Change in EC50 Relative to WT HIV-1 [1]: 1.8
Fold Change in EC50 Relative to WT HIV-1 [2]: 0.8
Fold Change in EC50 Relative to WT HIV-1 [3]: 0.8
Fold Change in EC50 Relative to WT HIV-1 [4]: 0.2
Fold Change in EC50 Relative to WT HIV-1 [5]: 0.3
Fold Change in EC50 Relative to WT HIV-1 [6]: 0.7
Fold Change in EC50 Relative to WT HIV-1 [7]: 1
Fold Change in EC50 Relative to WT HIV-1 [8]: 0.6
Fold Change in EC50 Relative to WT HIV-1 [9]: 0.6
